A mixed list of measured activities; the numbers were collected in NIAID ChemDB.

All rows: whole-cell or culture tests

Blank or dashed fields: not listed here. MIC50, MIC90 and the like: level of inhibition, or share of isolates inhibited. Neighbouring rows are from separate reports.

{"compound": "O=C1c2cc(Cl)ccc2OP(=O)(c2ccccc2)N1c1ccc(C(F)(F)F)cc1", "agent": "Mycobacterium kansasii", "strain": "My 6509/96", "conditions": "7 d", "read-out": "MIC", "result": "8 µM"}
{"compound": "CCOc1cc(Cc2cnc(N)nc2N)cc(OCC)c1-n1cccc1", "agent": "Mycobacterium ulcerans", "strain": "Isolate 94-886", "read-out": "MIC", "result": "1 µg/mL"}
{"compound": "NC[C@H]1O[C@H](O[C@H]2[C@H](O)[C@@H](O[C@H]3O[C@H](CO)[C@@H](O)[C@H](N)[C@H]3O)[C@H](N)C[C@@H]2N)[C@H](O)[C@@H](O)[C@@H]1O", "agent": "Mycobacterium avium complex", "strain": "Isolate C-45", "read-out": "MIC", "result": "25 µg/mL"}
{"compound": "O=C(Nc1ccc(C(F)(F)F)cc1)c1cc(Cl)ccc1OP(=O)(c1ccccc1)c1ccccc1", "agent": "Mycobacterium kansasii", "strain": "My 235/80", "conditions": "21 d", "read-out": "MIC", "result": "4 µM"}
{"compound": "O=C(O)c1cn(C2CC2)c2c(F)c(N3CCNCC3)c(F)cc2c1=O", "agent": "Mycobacterium smegmatis", "strain": "KD1163 (GRYA+)", "read-out": "MIC99", "result": "0.044 µg/mL"}
{"compound": "CO[C@H]1/C=C/O[C@@]2(C)Oc3c(C)c(O)c4c(O)c(c5c(c4c3C2=O)NC2(CCN(CC(C)C)CC2)N=5)=NC(=O)/C(C)=C\\C=C\\[C@H](C)[C@H](O)[C@@H](C)[C@@H](O)[C@@H](C)[C@H](OC(C)=O)[C@@H]1C", "agent": "Mycobacterium avium complex", "strain": "9141", "read-out": "MBC", "result": "16 µg/mL"}
{"compound": "CN(C)c1cc(NC(=O)CNC(C)(C)C)c(O)c2c1C[C@H]1C[C@H]3[C@H](N(C)C)C(=O)C(C(N)=O)=C(O)[C@@]3(O)C(=O)C1=C2O", "agent": "Mycobacterium massiliense", "strain": "X21", "read by": "broth dilution", "read-out": "MIC", "result": "1 µg/mL"}
{"compound": "NNC(=S)N/N=C/c1cn(Cc2ccccc2Cl)c2ccccc12", "agent": "Mycobacterium bovis BCG", "strain": "1173P2", "read by": "broth dilution", "conditions": "24 h", "read-out": "MIC100", "result": "500 µg/mL"}
{"compound": "CCN(CC)c1nc2c(s1)c1c(O)c3c(O)c(C)c4c(c32)C(=O)[C@@](C)(O/C=C/[C@H](OC)[C@@H](C)[C@@H](OC(C)=O)[C@H](C)[C@H](O)[C@H](C)[C@@H](O)[C@@H](C)/C=C/C=C(/C)C(=O)N1)O4", "agent": "Mycobacterium avium", "strain": "50 strains", "read-out": "MIC50", "result": "0.45 µg/mL"}
{"compound": "COc1c(N2CC(C)NC(C)C2)c(F)cc2c(=O)c(C(=O)O)cn(C3CC3)c12", "agent": "Mycobacterium smegmatis", "strain": "KD1163 (GRYA+)", "read-out": "MIC99", "result": "0.028 µg/mL"}
{"compound": "O=C(Nc1ccc(Cl)cc1)c1cc(Cl)ccc1OP(=O)(Oc1ccccc1)c1ccccc1", "agent": "Mycobacterium kansasii", "strain": "My 235/80", "conditions": "14 d", "read-out": "MIC", "result": "8 µM"}
{"compound": "COc1c(N2CCNCC2)c(F)cc2c(=O)c(C(=O)O)cn(C3CC3)c12", "agent": "Mycobacterium smegmatis", "strain": "KD1990 (GYRA D95A)", "read-out": "MIC99", "result": "0.31 µg/mL"}
{"compound": "CS(C)=O", "agent": "Mycobacterium bovis BCG", "strain": "1173P2", "read by": "broth dilution", "conditions": "24 h", "read-out": "MIC100", "result": "6.5 µg/mL"}
{"compound": "CC[C@H]1OC(=O)[C@H](C)[C@@H](O[C@H]2C[C@@](C)(OC)[C@@H](O)[C@H](C)O2)[C@H](C)[C@@H](O[C@@H]2O[C@H](C)C[C@H](N(C)C)[C@H]2O)[C@](C)(OC)C[C@@H](C)C(=O)[C@H](C)[C@@H](O)[C@]1(C)O", "agent": "Mycobacterium massiliense", "strain": "X7", "read by": "broth dilution", "read-out": "MIC", "result": "0.125 µg/mL"}
{"compound": "Nc1ccc(S(=O)(=O)c2ccc(N)cc2)cc1", "agent": "Mycobacterium ulcerans", "strain": "Isolate 5143", "read-out": "MIC", "result": "0.5 µg/mL"}
{"compound": "O=C(Nc1ccc(Cl)c(Cl)c1)c1cc(Cl)ccc1OP(=O)(c1ccccc1)c1ccccc1", "agent": "Mycobacterium kansasii", "strain": "My 6509/96", "conditions": "14 d", "read-out": "MIC", "result": "8 µM"}
{"compound": "CNc1ccc2oc(C[C@@H]3OC4(CC[C@@H]3C)O[C@H](C(C)C(=O)c3ccc[nH]3)[C@H](C)C[C@H]4C)nc2c1C(=O)O", "agent": "Mycobacterium aurum", "changes": "T532 insertion", "read by": "resazurin", "read-out": "MIC", "result": "0.64 µg/mL"}
{"compound": "O=C(Nc1ccc(C(F)(F)F)cc1)c1cc(Br)ccc1OP(=O)(Oc1ccccc1)Oc1ccccc1", "agent": "Mycobacterium kansasii", "strain": "My 6509/96", "conditions": "21 d", "read-out": "MIC", "result": "4 µM"}
{"compound": "C(=N\\Nc1nncs1)/c1cn(CC2CCCCC2)c2ccccc12", "agent": "Mycobacterium bovis BCG", "strain": "1173P2", "read by": "broth dilution", "conditions": "24 h", "read-out": "MIC100", "result": "15.63 µg/mL"}
{"compound": "O=C(Nc1ccc(C(F)(F)F)cc1)c1cc(Br)ccc1OP(=O)(c1ccccc1)c1ccccc1", "agent": "Mycobacterium kansasii", "strain": "My 6509/96", "conditions": "14 d", "read-out": "MIC", "result": "4 µM"}
{"compound": "CC(C)N1CCN(c2cc3c(cc2F)c(=O)c(C(=O)O)cn3C2CC2)CC1", "agent": "Mycobacterium smegmatis", "strain": "KD1995 (GYRA D95H)", "read-out": "MIC99", "result": "3.6 µg/mL"}
{"compound": "O=C(Nc1ccc(Br)cc1)c1cc(Cl)ccc1OP(=O)(Oc1ccccc1)Oc1ccccc1", "agent": "Mycobacterium kansasii", "strain": "My 6509/96", "conditions": "21 d", "read-out": "MIC", "result": "8 µM"}
{"compound": "COc1nc2ccc(Br)cc2cc1[C@@H](c1ccccc1)[C@@](O)(CCN(C)C)c1cccc2ccccc12", "agent": "Mycobacterium aurum", "changes": "G364T", "read by": "resazurin", "read-out": "MIC", "result": "0.04 µg/mL"}
{"compound": "CC(C)N1CCN(c2c(F)cc3c(=O)c(C(=O)O)cn(C4CC4)c3c2F)CC1", "agent": "Mycobacterium smegmatis", "strain": "KD1998 (GYRA D95N)", "read-out": "MIC99", "result": "6.8 µg/mL"}
{"compound": "N#Cc1cccc(Cn2cc(/C=N/Nc3nncs3)c3ccccc32)c1", "agent": "Mycobacterium bovis BCG", "strain": "1173P2", "read by": "broth dilution", "conditions": "48 h", "read-out": "MIC100", "result": "250 µg/mL"}
{"compound": "O=C1c2ccccc2OP(=O)(c2ccccc2)N1c1ccccc1", "agent": "Mycobacterium kansasii", "strain": "My 6509/96", "conditions": "14 d", "read-out": "MIC", "result": "500 µM"}
{"compound": "CCN1CCN(c2c(F)cc3c(=O)c(C(=O)O)cn(C4CC4)c3c2OC)CC1", "agent": "Mycobacterium smegmatis", "strain": "KD2008 (GYRA G89C)", "read-out": "MIC99", "result": "2.4 µg/mL"}

A second listing of 2 rows from above:

compound,agent,strain,changes,read by,conditions,read-out,result
CCOc1cc(Cc2cnc(N)nc2N)cc(OCC)c1-n1cccc1,Mycobacterium ulcerans,Isolate 94-886,,,,MIC,1 µg/mL
CCN(CC)c1nc2c(s1)c1c(O)c3c(O)c(C)c4c(c32)C(=O)[C@@](C)(O/C=C/[C@H](OC)[C@@H](C)[C@@H](OC(C)=O)[C@H](C)[C@H](O)[C@H](C)[C@@H](O)[C@@H](C)/C=C/C=C(/C)C(=O)N1)O4,Mycobacterium avium,50 strains,,,,MIC50,0.45 µg/mL